Results of unrelated studies side by side (data: NIAID ChemDB).

All rows: tests in culture; species: Cryptococcus neoformans; read-out: MIC80

Conditions beyond the fields shown may differ between rows.

compound,strain or isolate,result
O=C1S/C(=C\c2ccc(F)cc2)C(=O)N1CC(O)(Cn1nccn1)c1ccc(F)cc1F,-,4.34 µg/mL
CN(CCCCCOc1ccccc1)CC(O)(Cn1cncn1)c1ccc(F)cc1F,-,0.15 µM
N=C(N)c1ccc(OCCCCCOc2ccc(/C(N)=N\O)cc2)cc1,H99,>100 µg/mL
O=C1S/C(=C\c2ccncc2)C(=O)N1CC(O)(Cn1nccn1)c1ccc(F)cc1F,-,>100 µg/mL
C[C@@H](c1ncncc1F)[C@](O)(Cn1cncn1)c1ccc(F)cc1F,-,0.18 µM
NN(Cc1ccccc1)CC(O)(Cn1cncn1)c1ccc(F)cc1F,ATCC 24065,0.063 µg/mL
OC(CN=C1CCN(CCCCCOc2ccccc2)CC1)(Cn1cncn1)c1ccc(F)cc1F,-,>129 µM
O=C1S/C(=C\c2ccccc2)C(=O)N1CC(O)(Cn1nccn1)c1ccc(F)cc1F,CNCYP51,36.16 µg/mL
CCCCCCCCNC1NCCC2c3ccccc3CCN12,NFI3102,4 µg/mL
OC(CN=C1CCN(CCCOc2ccccc2)CC1)(Cn1cncn1)c1ccc(F)cc1F,-,>136 µM
OC(CN1CCN(c2ccc(OCc3ccncc3)cc2)CC1)(Cn1cncn1)c1ccc(F)cc1F,101045,0.125 µg/mL
N=C(N)c1ccc(OCCCC(O)COc2ccc(C(=N)N)cc2)cc1,119.95,0.39 µg/mL
N=C(N)c1ccc2nc(CCCCc3nc4ccc(C(=N)N)cc4[nH]3)[nH]c2c1,H99,>100 µg/mL
OC(Cn1cncn1)(Cn1cncn1)c1ccc(F)cc1F,CNCYP51,13.45 µg/mL
N=C(N)c1ccc(NCCCNc2ccc(C(=N)N)cc2[N+](=O)[O-])c([N+](=O)[O-])c1,135.95,3.12 µg/mL
O=C1S/C(=C\c2ccc(Br)cc2)C(=O)N1CC(O)(Cn1nccn1)c1ccc(F)cc1F,CNCYP51,7.67 µg/mL
OC(CN1CCCN(CCCOc2ccccc2)C1)(Cn1cncn1)c1ccc(F)cc1F,-,140 µM
CCCCCCCCOc1ccc(NC(=O)C(CC(=O)OC(C)(C)C)NC(=O)[C@]2(O)C[C@@H](O)C(O)[C@H](OC(=O)/C=C/c3ccc(O)c(O)c3)C2)cc1,ATCC 32045,1 µg/mL
CC(C)CCCCCCNC1NCCC2c3ccccc3CCN12,NFI3102,2 µg/mL
CN=[N+]([O-])CC[C@H](N)C(=O)O,MTU 13001,>200 µg/mL
CN(CC(=O)Nc1ccc(F)c(Cl)c1)CC(O)(Cn1cncn1)c1ccc(F)cc1F,-,1 µg/mL
N=C(N)c1ccc2nc(CCCc3nc4ccc(C(=N)N)cc4[nH]3)[nH]c2c1,H99,>100 µg/mL
CCCCN(Cc1cn(Cc2c(Cl)cccc2Cl)nn1)CC(O)(Cn1cncn1)c1ccc(F)cc1F,-,>64 µg/mL
CN(C)c1ccc(/C=C2\SC(=O)N(CC(O)(Cn3nccn3)c3ccc(F)cc3F)C2=O)cc1,-,8.24 µg/mL
CCCCN(Cc1cn(Cc2ccccc2[N+](=O)[O-])nn1)CC(O)(Cn1cncn1)c1ccc(F)cc1F,-,64 µg/mL
C=C(CCCCCNC1NCCC2c3ccccc3CCN12)C(C)C,NFI3102,2 µg/mL
CC(C)(C)c1ccc(/C=C2\SC(=O)N(CC(O)(Cn3nccn3)c3ccc(F)cc3F)C2=O)cc1,CNCYP51,8.02 µg/mL
COc1ccc2c(c1)CCN1C(NCCCCCC=C(C)C)NCCC21,NFI3102,8 µg/mL
N=C(N)c1ccc2nc(-c3cccc(-c4nc5ccc(C(=N)N)cc5[nH]4)n3)[nH]c2c1,H99,>100 µg/mL
O=C1S/C(=C\c2ccc(Cl)cc2)C(=O)N1CC(O)(Cn1nccn1)c1ccc(F)cc1F,-,67.1 µg/mL
N/C(=N\O)c1ccc(OCCCCCOc2ccc(/C(N)=N\O)cc2)cc1,H99,>100 µg/mL
O=C(NCCCN1CCOCC1)c1ccc(-c2ccc(-c3ccc(C(=O)NCCCN4CCOCC4)cc3)o2)cc1,H99,>100 µg/mL
C[C@@H](n1ncc2cccc([N+](=O)[O-])c21)[C@](O)(Cn1cncn1)c1ccc(F)cc1F,ATCC 24065,0.125 µg/mL
CCCCN(Cc1cn(Cc2ccc(Cl)cc2Cl)nn1)CC(O)(Cn1cncn1)c1ccc(F)cc1F,-,>64 µg/mL
CN(CCOc1ccc(CC2SC(=O)N(CC(O)(Cn3nccn3)c3ccc(F)cc3F)C2=O)cc1)c1ccccn1,CNCYP51,13.45 µg/mL
CN(CC(=O)Nc1ccc(C(C)(C)C)cc1)CC(O)(Cn1cncn1)c1ccc(F)cc1F,-,0.0625 µg/mL
C[C@@H](n1cc2cc(Cl)ccc2n1)[C@](O)(Cn1cncn1)c1ccc(F)cc1F,ATCC 24065,0.015 µg/mL
CN(CC(=O)Nc1ccccc1[N+](=O)[O-])CC(O)(Cn1cncn1)c1ccc(F)cc1F,-,4 µg/mL
CCCCN(Cc1cn(Cc2cccc(Cl)c2)nn1)CC(O)(Cn1cncn1)c1ccc(F)cc1F,-,1 µg/mL
C[C@@H](n1cc2cc(F)ccc2n1)[C@](O)(Cn1cncn1)c1ccc(F)cc1F,ATCC 24065,0.063 µg/mL

Blank or dashed fields: not listed here. MIC50, MIC90 and the like: level of inhibition, or share of isolates inhibited.